Measured values from several laboratories, pooled; numbers as filed in NIAID ChemDB.

All rows: tests in culture

ECn: concentration that inhibits the pathogen or its effect by n%. Inhibition is in % at the dose shown (toxicity tests: loss of growth or viability). An empty or dashed field is not shown. A number after MIC or MFC names an inhibition level or a share of isolates. Neighbouring rows are from separate reports.

structure | organism | cells | method | read-out | dose | value
CCCN1[Se]c2ccccc2NC1=O | Encephalomyocarditis virus |  |  | MIC |  | 4 µg/mL
COc1cc(NCc2cnc3nc(N)nc(N)c3c2C)cc(OC)c1OC | Encephalitozoon intestinalis | RK-13 |  | inhibition | 0.1 µg/mL | 38.2%
CCCSc1ccc2nc(NC(=O)OC)[nH]c2c1 | Encephalitozoon intestinalis |  |  | MIC50 |  | 0.008 µg/mL
CCCNC(=O)Nc1ccccc1[Se][Se]c1ccccc1NC(=O)NCCC | Encephalomyocarditis virus |  |  | MIC |  | 10 µg/mL
CCCSc1nsc(-c2ccccc2)c1C(N)=O | Encephalomyocarditis virus | L929 | plaque count | EC50 |  | >30 µg/mL
O=c1c2cccnc2[se]n1-c1ccccc1 | Encephalomyocarditis virus |  |  | MIC |  | 4 µg/mL
CCCSc1ccc2nc(NC(=O)OC)[nH]c2c1 | Encephalitozoon intestinalis | E6 HOST CELLS |  | EC50 |  | 0.3 µg/mL
CCOC(=O)Nc1cc2c(c(N)n1)N=C(c1ccc3ccccc3c1)CS2 | Encephalitozoon intestinalis | RK-13 |  | inhibition | 0.01 µg/mL | 1.8%
NS(=O)(=O)c1ccc(NC(=O)CCC[Se][Se]CCCC(=O)Nc2ccc(S(N)(=O)=O)cc2)cc1 | Encephalomyocarditis virus |  |  | MIC |  | >1000 µg/mL
CCCSc1ccc2nc(NC(=O)OC)[nH]c2c1 | Encephalitozoon cuniculi | MRC-5 fibroblasts | cytopathic effect | inhibition | 0.001 µg/mL | 8%
CCCn1[se]c2ncccc2c1=O | Encephalomyocarditis virus |  |  | MIC |  | 4 µg/mL
CCCOc1ccc2nc(NC(=O)OC)[nH]c2c1 | Encephalitozoon cuniculi |  |  | EC50 |  | 0.0015 µg/mL
CC(=O)N[C@H]1[C@@H](O[C@@H]2O[C@H](C[C@@H](O)[C@H]3O[C@@H](n4ccc(=O)[nH]c4=O)[C@H](O)[C@@H]3O)[C@H](O)[C@H](O)[C@H]2NC(=O)/C=C/CC(C)C)O[C@H](CO)[C@@H](O)[C@@H]1O | Encephalitozoon intestinalis | RK-13 |  | inhibition | 0.01 µg/mL | 54.5%
CC(C)(C)n1[se]c2ncccc2c1=O | Encephalomyocarditis virus |  |  | MIC |  | 4 µg/mL
COC(=O)Nc1nc2ccccc2[nH]1 | Encephalitozoon intestinalis | E6 HOST CELLS |  | EC50 |  | >3 µg/mL
Cn1[se]c2c(ccc[n+]2C)c1=O | Encephalomyocarditis virus |  |  | MIC |  | 2 µg/mL
Cc1c(CSc2cccc3ccccc23)cnc2nc(N)nc(N)c12 | Encephalitozoon intestinalis | RK-13 |  | inhibition | 1 µg/mL | 77.5%
O=C1C(=O)c2ccccc2C(O)=C1C1CCC(c2ccc(Cl)cc2)CC1 | Encephalitozoon cuniculi | MRC-5 fibroblasts | cytopathic effect | EC50 |  | >5 µg/mL
CCOC(=O)Nc1cc2c(c(N)n1)N=C(c1ccc(OC)c(OC)c1)CO2 | Encephalitozoon intestinalis | RK-13 |  | inhibition | 0.001 µg/mL | 2.9%
N#Cc1c(N2CCCCC2)nsc1-c1ccccc1 | Encephalomyocarditis virus | L929 | plaque count | EC50 |  | >25 µg/mL
CCC(C)n1ncn(-c2ccc(N3CCN(c4ccc(OC[C@H]5CO[C@](Cn6cncn6)(c6ccc(Cl)cc6Cl)O5)cc4)CC3)cc2)c1=O | Encephalitozoon cuniculi |  |  | EC50 |  | >5 µg/mL
CCCSc1nsc(-c2ccccc2)c1C#N | Encephalomyocarditis virus | L929 | plaque count | EC50 |  | 5 µg/mL
COC(=O)Nc1nc2ccc(Sc3ccccc3)cc2[nH]1 | Encephalitozoon intestinalis | E6 HOST CELLS |  | EC50 |  | 0.2 µg/mL
CO[C@H]1[C@@H](OC(=O)/C=C/C=C/C=C/C=C/C(=O)O)CC[C@@]2(CO2)[C@@H]1[C@@]1(C)O[C@@H]1CC=C(C)C | Encephalitozoon cuniculi |  |  | EC50 |  | 0.01 µg/mL
CCCNC(=O)Oc1ccccc1[Se][Se]c1ccccc1OC(=O)NCCC | Encephalomyocarditis virus |  |  | MIC |  | 4 µg/mL
O=c1[nH][se]c2ncccc12 | Encephalomyocarditis virus |  |  | MIC |  | 6 µg/mL
c1ccc2[nH]c(-c3cscn3)nc2c1 | Encephalitozoon cuniculi |  |  | EC50 |  | 0.3 µg/mL
COC(=O)Nc1nc2ccc(S(=O)c3ccccc3)cc2[nH]1 | Encephalitozoon intestinalis | E6 HOST CELLS |  | EC50 |  | >3 µg/mL
CSc1nsc(-c2ccccc2)c1C(=O)O | Encephalomyocarditis virus | L929 | plaque count | EC50 |  | >500 µg/mL
CC(=O)NS(=O)(=O)c1ccc(NC(=O)CCC[Se][Se]CCCC(=O)Nc2ccc(S(=O)(=O)NC(C)=O)cc2)cc1 | Encephalomyocarditis virus |  |  | MIC |  | 100 µg/mL
CO[C@@H]1[C@H](OC(=O)NC(=O)CCl)CC[C@]2(CO2)[C@H]1[C@@]1(C)O[C@@H]1CC=C(C)C | Encephalitozoon hellem | RK-13 |  | EC50 |  | 0.001 µg/mL
CCCN1[Se]c2ccccc2NC1=S | Encephalomyocarditis virus |  |  | MIC |  | 100 µg/mL
Nc1ncnc2c1ncn2Cc1c(F)cccc1Cl | Encephalitozoon cuniculi | MRC-5 fibroblasts | cytopathic effect | inhibition | 1 µg/mL | 0%
CCCSc1nsc(-c2ccccc2)c1C(=O)OC | Encephalomyocarditis virus | L929 | plaque count | EC50 |  | >50 µg/mL
CCC(C)n1ncn(-c2ccc(N3CCN(c4ccc(OC[C@H]5CO[C@](Cn6cncn6)(c6ccc(Cl)cc6Cl)O5)cc4)CC3)cc2)c1=O | Encephalitozoon cuniculi | MRC-5 fibroblasts | cytopathic effect | EC50 |  | >1 µg/mL
CCCCc1ccc2nc(NC(=O)OC)[nH]c2c1 | Encephalitozoon intestinalis | E6 HOST CELLS |  | EC50 |  | 0.03 µg/mL
CO[C@@H]1[C@H](OC(=O)NC(=O)CCl)CC[C@]2(CO2)[C@H]1[C@@]1(C)O[C@@H]1CC=C(C)C | Encephalitozoon cuniculi |  |  | EC50 |  | 0.01 µg/mL
COC(=O)Nc1nc2ccc(C(=O)c3cccs3)cc2[nH]1 | Encephalitozoon intestinalis | E6 HOST CELLS |  | EC50 |  | 0.03 µg/mL
O=c1c2cccnc2[se]n1-c1ccc(Cl)cc1 | Encephalomyocarditis virus |  |  | MIC |  | 500 µg/mL

6 of the rows above, restated:

structure	organism	cells	method	read-out	dose	value
O=c1c2cccnc2[se]n1-c1ccc(Cl)cc1	Encephalomyocarditis virus			MIC		500 µg/mL
O=c1[nH][se]c2ncccc12	Encephalomyocarditis virus			MIC		6 µg/mL
COc1cc(NCc2cnc3nc(N)nc(N)c3c2C)cc(OC)c1OC	Encephalitozoon intestinalis	RK-13		inhibition	0.1 µg/mL	38.2%
CCCn1[se]c2ncccc2c1=O	Encephalomyocarditis virus			MIC		4 µg/mL
CCCOc1ccc2nc(NC(=O)OC)[nH]c2c1	Encephalitozoon cuniculi			EC50		0.0015 µg/mL
CCCSc1nsc(-c2ccccc2)c1C(N)=O	Encephalomyocarditis virus	L929	plaque count	EC50		>30 µg/mL